In publication PMC4132019, “Comparative Analysis of Seven Viral Nuclear Export Signals (NESs) Reveals the Crucial Role of Nuclear Export Mediated by the Third NES Consensus Sequence of Nucleoprotein (NP) in Influenza A Virus Replication” (2014):

These substances were tested against CRM1-HA (chromosome region maintenance 1) (human (HeLa cell cDNA)) (UniProt O14980) (assay: pull-down).

First: NP-NES3 Φ4 mutant NP-FLAG (L266A) (from UniProt P15682 1-498) (natural protein)
Second: NP-NES3 Φ3 mutant NP-FLAG (L264A) (from UniProt P15682 1-498) (natural protein)
The CRM1 binding (%WT) of the first is higher: 45 % of WT for the first, 39.5 % of WT for the second.

Compared with “NP-NES3 Φ2 mutant NP-FLAG (L259A) (from UniProt P15682 1-498) (natural protein)”, “NP-NES3 Φ1 mutant NP-FLAG (L256A) (from UniProt P15682 1-498) (natural protein)” is higher in CRM1 binding (%WT): 48.2 % of WT for the first, 110 % of WT for the second.
